# Several values for one entry are separate records, joined by “and”; a condition that tells them apart may be missing. Equal entries are not always repeated.
# Test system: anthrax lethal toxin (LT; PA + LF)
# Parameters: species or system Fischer 344 rats
# Conditions: rat, in vivo
structure (smiles),measurement,value
CCC(NCCCC[C@@H](Nc1cc(C)c(F)c(C)c1)C(=O)NO)c1ccc(F)cc1 (mixture of isomers) [LFI 17],surv (number of survivors per group),protect all of the animals and 3/3 and 0/3
